Results of unrelated studies side by side (data: NIAID ChemDB).

Common to all: cytotoxicity tests; cells: H9; read-out: CC50

CCn: concentration that lowers growth or viability of the cells by n%.

| compound | result |
|---|---|
| CC1(C)Oc2ccc3ccc(=O)oc3c2C(OC(=O)c2cccc(Cl)c2)C1OCc1ccccc1 | 15.5 µM |
| CC1(C)Oc2ccc3ccc(=O)oc3c2[C@@H](OC(=O)C23CCC(C)(C(=O)O2)C3(C)C)[C@H]1OC(=O)C12CCC(C)(C(=O)O1)C2(C)C | 35 µM |
| CC(=O)OC1c2c(ccc3ccc(=O)oc23)OC(C)(C)C1OCc1ccccc1 | 87.4 µM |
| C=C(C)[C@@H]1CC[C@]2(COC(=O)CC(C)CC(=O)O)CC[C@]3(C)[C@H](CC[C@@H]4[C@@]5(C)CC[C@H](OC(=O)CC(C)CC(=O)O)C(C)(C)[C@@H]5CC[C@]43C)[C@@H]12 | 20.7 µM |
| C[C@H]1[C@H](C)CC[C@]2(C(=O)O)CC[C@]3(C)C(=CC[C@@H]4[C@@]5(C)CC[C@H](OC(=O)COCC(=O)O)C(C)(C)[C@@H]5CC[C@]43C)[C@H]12 | 48.2 µM |
| CC1(C)Oc2ccc3ccc(=O)oc3c2[C@H](OC(=O)C23CCC(C)(C(=O)O2)C3(C)C)[C@@H]1OC(=O)C12CCC(C)(C(=O)O1)C2(C)C | 159 µM |
| CC(C)CC(=O)O[C@H]1CC[C@]2(C)[C@H]3CC=C4[C@@H]5[C@@H](C)[C@H](C)CC[C@]5(C(=O)O)CC[C@@]4(C)[C@]3(C)CC[C@H]2C1(C)C | >18.5 µM |
| COc1c(Br)c2c(c(OC)c1OC)-c1c(c(Br)c(OC)c(OC)c1OC)C[C@](C)(O)[C@@H](C)C2 | 25 µg/mL |
| O=C(O)C1=C[C@@H](O)[C@@H](O)[C@H](OC(=O)c2cc(O)c(O)c(O)c2)C1 | 25 µM |
| C=C(C)[C@@H]1CC[C@]2(C(=O)O)CC[C@]3(C)[C@H](CC[C@@H]4[C@@]5(C)CC[C@H](O)C(C)(C)[C@@H]5CC[C@]43C)[C@@H]12 | 12.9 µM |
| C[C@H]1[C@H](C)CC[C@]2(C(=O)O)CC[C@]3(C)C(=CC[C@@H]4[C@@]5(C)CC[C@H](OC(=O)CC(C)(C)CC(=O)O)C(C)(C)[C@@H]5CC[C@]43C)[C@H]12 | 7 µM |
| O=C(O[C@@H]1O[C@H](CO)[C@@H](O)[C@H](O)[C@H]1O)c1cc(O)c(O)c(O)c1 | 80 µM |
| COc1c2c(cc3c1-c1c(cc4c(c1OC)OCO4)C[C@H](C)[C@H](C)C3)OCO2 | 40 µg/mL |
| CC(C)[C@@H]1CC[C@]2(COC(=O)CCCC(=O)O)CC[C@]3(C)[C@H](CC[C@@H]4[C@@]5(C)CC[C@H](OC(=O)CCCC(=O)O)C(C)(C)[C@@H]5CC[C@]43C)[C@@H]12 | 26.3 µM |
| COc1c2c(cc3c1-c1c(cc4c(c1OC)OCO4)C(OC(=O)c1ccccc1)[C@H](C)[C@@H](C)C3)OCO2 | 50 µg/mL |
| C=C(C)[C@@H]1CC[C@]2(C(=O)O)CC[C@]3(C)[C@H](CC[C@@H]4[C@@]5(C)CC[C@H](NC(=O)COCC(=O)O)C(C)(C)[C@@H]5CC[C@]43C)[C@@H]12 | 38.7 µM |
| CC1(C)Oc2ccc3ccc(=O)oc3c2[C@@H](OC(=O)C23CCC(C)(C(=O)O2)C3(C)C)[C@H]1OC(=O)C12CCC(C)(C(=O)O1)C2(C)C | 54.7 µM |
| COc1c2c(cc3c1-c1c(cc4c(c1OC)OCO4)C(OC(=O)c1ccccc1)[C@@](C)(O)[C@@H](C)C3)OCO2 | 55 µg/mL |
| Cc1cn([C@H]2C[C@H](N=[N+]=[N-])[C@@H](CO)O2)c(=O)[nH]c1=O | 1875 µM |
| Cc1cn([C@H]2C[C@H](N=[N+]=[N-])[C@@H](CO)O2)c(=O)[nH]c1=O | >1873 µM |
| COc1cc2c(c(OC)c1OC)-c1c(cc(OC)c(OC)c1OC)C[C@H](C)[C@H](C)C2 | 9 µg/mL |
| C=C(C)[C@@H]1CC[C@]2(C(=O)OC)CC[C@]3(C)[C@H](CC[C@@H]4[C@@]5(C)CC[C@H](NC(=O)CC(C)(C)CC(=O)O)C(C)(C)[C@@H]5CC[C@]43C)[C@@H]12 | 23.5 µM |
| C=C(COC(=O)CC(C)(C)CC(=O)O)[C@@H]1CC[C@]2(COC(=O)CC(C)(C)CC(=O)O)CC[C@]3(C)[C@H](CC[C@@H]4[C@@]5(C)CC[C@H](OC(=O)CC(C)(C)CC(=O)O)C(C)(C)[C@@H]5CC[C@]43C)[C@@H]12 | 17.5 µM |
| COc1cc2c(c(OC)c1OC)-c1c(cc3c(c1OC)OCO3)C[C@H](C)[C@@](C)(O)C2 | 50 µg/mL |
| COC1C(OC(=O)c2cccc(Cl)c2)c2c(ccc3ccc(=O)oc23)OC1(C)C | 81.94 µM |
| C=C(C)[C@@H]1CC[C@]2(C(=O)O)CC[C@]3(C)[C@H](CC[C@@H]4[C@@]5(C)CC[C@H](OC(=O)CC(C)(C)C(=O)O)C(C)(C)[C@@H]5CC[C@]43C)[C@@H]12 | 7 µM |
| CC(=O)O[C@@H]1[C@H](OC(=O)CC(C)C)c2c(ccc3ccc(=O)oc23)OC1(C)C | 79.56 µM |
| C=C(C)[C@@H]1CC[C@]2(C(=O)O)CC[C@]3(C)[C@H](CC[C@@H]4[C@@]5(C)CC[C@@H](NC(=O)COCC(=O)O)C(C)(C)[C@@H]5CC[C@]43C)[C@@H]12 | 174.9 µM |
| COc1c2c(c(Br)c3c1-c1c(c(Br)c4c(c1OC)OCO4)C[C@H](C)[C@H](C)C3)OCO2 | >100 µg/mL |
| C[C@H](CCC(=O)N[C@@H](Cc1cc(I)c(O)cc1I)C(=O)O)[C@H]1CC[C@H]2[C@@H]3CCC4C[C@H](O)CC[C@]4(C)[C@H]3C[C@H](O)[C@]12C | >500 µg/mL |
| COc1cc2c(c(OC)c1OC)-c1c(cc3c(c1OC)OCO3)C(OC(=O)c1ccccc1)[C@@](C)(O)[C@@H](C)C2 | 1.8 µg/mL |
| C=C(CO)[C@@H]1CC[C@]2(CO)CC[C@]3(C)[C@H](CC[C@@H]4[C@@]5(C)CC[C@H](O)C(C)(C)[C@@H]5CC[C@]43C)[C@@H]12 | >140.5 µM |
| CC(=O)OC1C(N=[N+]=[N-])c2c(ccc3ccc(=O)oc23)OC1(C)C | 115.9 µM |
| C=C(C)[C@@H]1CC[C@]2(COC(=O)CC(C)(C)C(=O)O)CC[C@@H]3[C@H](CC[C@H]4[C@H]3CC[C@H]3C(C)(C)[C@@H](O)CC[C@]43C)[C@@H]12 | 37.4 µM |
| O=C(OC[C@H]1O[C@@H](OC(=O)c2cc(O)c(O)c(O)c2)[C@H](OC(=O)c2cc(O)c(O)c(O)c2)[C@@H](OC(=O)c2cc(O)c(O)c(O)c2)[C@@H]1OC(=O)c1cc(O)c(O)c(O)c1)c1cc(O)c(O)c(O)c1 | 19 µM |
| C[C@H](CCC(=O)N[C@@H](Cc1cc(I)c(O)cc1I)C(=O)O)[C@H]1CC[C@H]2[C@@H]3[C@H](O)CC4C[C@H](O)CC[C@]4(C)[C@H]3CC[C@]12C | >500 µg/mL |

3 of the rows above, restated:

compound,result
Cc1cn([C@H]2C[C@H](N=[N+]=[N-])[C@@H](CO)O2)c(=O)[nH]c1=O,1875 µM
COc1cc2c(c(OC)c1OC)-c1c(cc3c(c1OC)OCO3)C(OC(=O)c1ccccc1)[C@@](C)(O)[C@@H](C)C2,1.8 µg/mL
CC1(C)Oc2ccc3ccc(=O)oc3c2[C@H](OC(=O)C23CCC(C)(C(=O)O2)C3(C)C)[C@@H]1OC(=O)C12CCC(C)(C(=O)O1)C2(C)C,159 µM

Conditions beyond the fields shown may differ between rows.